Compound potency records, mixed from different reports. Data source: NIAID ChemDB in PubChem.

Common to all: growth or infection tests; organism: Hepatitis C virus; read-out: EC50

ECn is the concentration giving n% inhibition of infection, replication or growth. Neighbouring rows are from separate reports. Two numbers with a dash give a range or band. Blank or dashed fields: not listed here.

smiles	setting	mutations	strain	method	cell line	value
Cc1cccc(-c2cc(-c3cccc(NC(=O)C(Cl)Cl)c3)on2)c1C				replicon		>10 µM
CC(C)(C)OC(=O)N1CCC(NS(=O)(=O)c2cc(-c3ccc4nc(NCc5ccc(S(N)(=O)=O)cc5)nc(NCC(F)(F)F)c4n3)ccc2Cl)CC1				replicon		<0.1 µM
C#Cc1cn([C@@H]2O[C@H](CO)[C@@H](O)[C@H]2F)c2ncnc(N)c12			1b	replicon	HCV replicon	0.47 µM
NS(=O)(=O)c1ccc(CNc2nc(NCC(F)(F)F)c3nc(-c4ccc(N5CCCC5=O)cc4)ccc3n2)cc1				replicon		<0.1 µM
Nc1ncnc2c1c(-c1ccsc1)cn2[C@@H]1O[C@H](CO)[C@@H](O)[C@H]1F			1b	replicon	HCV replicon	5.98 µM
O=C(Nc1ccc(C2SC(=Nc3ccc(N4CCOCC4)cc3)N(Cc3ccccn3)C2=O)cc1)[C@H]1CCCN1C(=O)Cc1ccccc1Cl				replicon	Huh7	<0.1 µM
O=C(O)/C=C/c1ccc(NCC2(NC(=O)c3ccc4c(C5CCCCC5)c5n(c4c3)CC(C(=O)N3CCC(N4CCCC4)CC3)Cc3ccccc3-5)CCCC2)cc1				replicon	Huh7	0.01–1 µM
CN1CCN(c2cc3c(cc2F)c(=O)c(-c2noc(C(C)(C)c4ccccc4)n2)cn3Cc2cccc(C(F)(F)F)c2)CC1			1b	replicon		>10 µM
O=C(N[C@@H](C(=O)N1CCC[C@H]1c1ncc(-c2ccc(-c3ccc(-c4cnc([C@@H]5CCCN5C(=O)[C@H](NC(=O)C5CC5)c5ccccc5)s4)cc3)cc2)s1)c1ccccc1)C1CC1			genotype 2a	luciferase / reporter gene	Huh7.5	0.00025 µM
Cc1cc(C(=O)Nc2ccc(-c3cc(N(C(=O)C4CCC(C)CC4)C(C)C)c(C(=O)O)s3)cc2)on1			1b	replicon		<0.5 µM
CCCCc1cccc(Cl)c1-c1cc(-c2cccc(NC(=O)C(Cl)Cl)c2)on1				replicon		≤10 µM
CC1CCC(C(=O)N(c2cc(-c3ccc(NC(=O)c4ncco4)cc3)sc2C(=O)O)C(C)C)CC1			1a	replicon		<0.5 µM
O=C(NS(=O)(=O)c1ccccc1)c1ccc2c(C3CCCCC3)c3n(c2c1)C[C@@H](O)[C@@H](O)c1ncccc1-3				replicon	Huh7	1–10 µM
NS(=O)(=O)c1ccc(CNc2nc(NCC(F)(F)F)c3nc(-c4ccc(F)nc4)ccc3n2)cc1				replicon		<0.1 µM
CCOc1nc(N)nc2c1ncn2[C@@H]1O[C@@H]2COP(=O)(OC(C)C)O[C@H]2[C@@]1(C)F	154 d		2a	replicon		3.36 µM
Cc1cnc(N2C(=O)C(c3ccc(NC(=O)[C@H]4CCCN4C(=O)Cc4ccccc4)cc3)SC2=Nc2ccc(N3CCOCC3)cc2)cn1				replicon	Huh7	<0.1 µM
Fc1ccc(-c2ccc3nc(NCc4ccc(N5CCCC5)cc4)nc(NCC(F)(F)F)c3n2)cc1				replicon		<0.1 µM
CC1CCC(C(=O)N(c2cc(-c3ccc(NC(=O)c4ccn[nH]4)cc3)sc2C(=O)O)C(C)C)CC1			1a	replicon		<0.5 µM
CCCCCCCCc1ccc(N(C(C)=O)c2nc(-c3cccnc3)c(F)s2)cc1C(F)(F)F						<1 µM
CN(C)c1cc2c(cc1F)c(=O)c(-c1noc(Cc3ccccc3)n1)cn2Cc1ccc(C(F)(F)F)cc1F			1b	replicon		>10 µM
CNC(=O)c1c(-c2ccc(F)cc2)oc2cc(N(C)S(C)(=O)=O)c(C3CC3)cc12				replicon	Huh7	<1 µM
CN1CCN(c2cc3c(cc2F)c(=O)c(-c2noc(Cc4ccccc4)n2)cn3Cc2c(F)cccc2Cl)CC1			1b	replicon		<10 µM
CCOc1nc(NCc2ccc(S(N)(=O)=O)cc2)nc2ccc(-c3ccc(NC(=O)C4CCNC4)cc3)nc12				replicon		<0.1 µM
CNC(=O)c1c(-c2ccc(F)cc2)oc2cc(N(CC(F)(F)F)S(C)(=O)=O)c(OC)cc12				replicon	Huh7	<1 µM
CN1CCN(C(=S)Nc2cccc(OCCCCCOc3ccc(-c4ccccc4)cc3)c2)CC1				reporter gene / fluorescence	Ava5-EG(delta4AB)SEAP	0.001–1 µM
CN(C)CC(=O)N(c1ccc(OCCCCc2cccs2)c(C(F)(F)F)c1)c1nc(-c2cccnc2)c(F)s1						<1 µM
CCOc1nc(N)nc2ccc(-c3ccc(NS(=O)(=O)CC)cc3)nc12				replicon	Huh7	>1 µM
N#CC1=Cn2c(c(C3CCCCC3)c3ccc(C(=O)O)cc32)-c2ccccc2C1				replicon	Huh7	1–10 µM
Cc1cccc(-c2ccccc2OCCCCCOc2cccc(NC(N)=S)c2)c1				reporter gene / fluorescence	Ava5-EG(delta4AB)SEAP	0.001–1 µM
CC(C)(c1ccccc1)c1nc(-c2cn(Cc3ccc(C(F)(F)F)cc3)c3cc(N4CCS(=O)CC4)c(F)cc3c2=O)no1			1b	replicon		<2 µM
CNC(=O)c1c(-c2ccc(F)cc2)oc2cc(-c3c(C)noc3C)c(O)cc12				replicon	Huh7	<1 µM
COc1ccc(NC(=O)C(Cl)Cl)cc1-c1cc(-c2c(Cl)cccc2Cl)no1				replicon		≤10 µM
CNC(=O)c1c(-c2ccc(F)cc2)oc2cc(N(Cc3ccc(C(=O)O)cc3)S(C)(=O)=O)c(OC(C)C)cc12				replicon	Huh7	<1 µM
CCOc1nc(NCc2ccc(S(N)(=O)=O)cc2)nc2ccc(-c3ccc(NC(=O)N4CCOCC4)cc3)nc12				replicon		<0.1 µM
O=C(Nc1cccc(-c2cc(-c3c(Cl)cccc3OCCN3CCOCC3)no2)c1)C(Cl)Cl				replicon		≤10 µM
CNC(=O)c1c(-c2ccc(F)cc2)oc2cc(N(C)CCOC)c(OC(C)C)cc12				replicon	Huh7	<1 µM
Nc1ncnc2c1c(-c1cc3ccccc3o1)cn2[C@@H]1O[C@H](CO)[C@@H](O)C1(F)F			1b	replicon	HCV replicon	1.08 µM
CCCCN1CCN(C(=S)Nc2cccc(OCCCCCc3ccccc3)c2)C1=S				reporter gene / fluorescence	Ava5-EG(delta4AB)SEAP	0.001–1 µM
C[C@@H](NC(=O)OCc1ccccc1)C(=O)Nc1ccc(C2SC(=Nc3cccc(F)c3)N(CCOc3ccccc3)C2=O)cc1				replicon	Huh7	1–5 µM
O=C(O)/C=C/c1ccc(NC(=O)C2(NC(=O)c3ccc4c(C5CCCCC5)c5n(c4c3)CCOc3ccccc3-5)CCCC2)cc1				replicon	Huh7	0.01–1 µM
Nc1ncnc2c1c(-c1ccoc1)cn2[C@H]1O[C@H](CO)[C@@H](O)C1(F)F			1b	replicon	HCV replicon	1.98 µM
O=C(O)c1ccc2c(C3CCCCC3)c3n(c2c1)C[C@@H](O)[C@@H](O)c1ccccc1-3				replicon	Huh7	1–10 µM
COC(=O)N[C@H](C(=O)N1CCC[C@H]1c1ncc(-c2ccc(-c3ccc(-c4cnc([C@@H]5CCCN5C(=O)[C@@H](NC(=O)OC)C(C)C)[nH]4)cc3)cc2)[nH]1)C(C)C		D320E	1b	luciferase	ET	0.0000038 µM
NC(=S)Nc1cccc(OCCCCCOc2ccccn2)c1				reporter gene / fluorescence	Ava5-EG(delta4AB)SEAP	0.001–1 µM
C[C@H](c1ccccc1)n1cc(-c2noc(C(C)(C)c3ccccc3)n2)c(=O)c2cc(F)c(N3CCOCC3)cc21			1b	replicon		<0.5 µM
O=C(Nc1ccc(C2SC(=Nc3ccc(F)c(Cl)c3)N(Cc3ccco3)C2=O)cc1)[C@H]1CCCN1C(=O)OCc1ccccc1				replicon	Huh7	1–5 µM
CN1CCN(c2cc3c(cc2F)c(=O)c(-c2noc(Cc4cc(F)cc(F)c4)n2)cn3Cc2ccc(Cl)cc2)CC1			1b	replicon		<10 µM
O=C(Nc1ccc(C2SC(=Nc3cccc(F)c3)N(Cc3ccco3)C2=O)cc1)[C@H]1CCC(=O)N1C(=O)OCc1ccccc1				replicon	Huh7	0.1–1 µM
CNC(=O)c1c(-c2ccc(F)cc2)oc2cc(N3CCC(F)CC3)c(OC(C)C)cc12				replicon	Huh7	<1 µM
CCCCCOc1ccc(N(C(=O)C(C)C)c2nc(-c3cccnc3)cs2)cc1C(F)(F)F						<1 µM
CC1CCC(C(=O)N(c2cc(-c3ccc(NC(=O)c4cncs4)cc3)sc2C(=O)O)C(C)C)CC1			1a	replicon		>0.5 µM
COC(=O)c1ccc2c(C3CCCCC3)c3n(c2c1)CCNc1ccccc1-3				replicon	Huh7	0.01–1 µM
CN1CCN(c2cccc(Cl)c2-c2cc(-c3cccc(NC(=O)C(Cl)Cl)c3)on2)CC1				replicon		≤10 µM
N#CC1(Nc2nc(NCc3ccc(S(N)(=O)=O)cc3)nc3ccc(-c4ccc(F)cc4)nc23)CC1				replicon		<0.1 µM
NC(=S)Nc1cccc(OCCCCCCCOc2cccc3ccccc23)c1				reporter gene / fluorescence	Ava5-EG(delta4AB)SEAP	0.001–1 µM
COC(=O)c1ccc2c(C3CCCCC3)c3n(c2c1)CC(C(=O)N1C[C@@H](C)O[C@@H](C)C1)=Cc1ccccc1-3				replicon	Huh7	1–10 µM
CCOc1nc(NCc2ccc(F)cc2)nc2ccc(-c3ccc(NC(=O)C4CC4)cc3)nc12				replicon		<0.1 µM
CNC(=O)c1c(-c2ccc(F)cc2)oc2cc(N3CCCC3)c(OC(C)C)cc12				replicon	Huh7	<1 µM
CC1CCC(C(=O)N(CC2CC2)c2cc(-c3ccc(NC(=O)c4ccn(C)n4)cc3)sc2C(=O)O)CC1			1b	replicon		<0.5 µM
Nc1ncnc2c1c(-c1ccccc1)cn2[C@H]1O[C@H](CO)[C@@H](O)C1(F)F			1a	replicon	HCV replicon	22.73 µM
CN1CCN(c2cccc(C(F)(F)F)c2-c2cc(-c3cccc(NC(=O)C(Cl)Cl)c3)on2)CC1				replicon		≤10 µM
CN(C)S(=O)(=O)NC(=O)c1ccc2c(C3CCCCC3)c3n(c2c1)C[C@@H](O)[C@@H](O)c1ccccc1-3				replicon	Huh7	0.01–1 µM
CCCCCCCC(F)(F)c1ccc(N(C(C)=O)c2nc(-c3cccnc3)cs2)cc1						<1 µM

Again, the opening 9 rows:

smiles | setting | mutations | strain | method | cell line | value
Cc1cccc(-c2cc(-c3cccc(NC(=O)C(Cl)Cl)c3)on2)c1C |  |  |  | replicon |  | >10 µM
CC(C)(C)OC(=O)N1CCC(NS(=O)(=O)c2cc(-c3ccc4nc(NCc5ccc(S(N)(=O)=O)cc5)nc(NCC(F)(F)F)c4n3)ccc2Cl)CC1 |  |  |  | replicon |  | <0.1 µM
C#Cc1cn([C@@H]2O[C@H](CO)[C@@H](O)[C@H]2F)c2ncnc(N)c12 |  |  | 1b | replicon | HCV replicon | 0.47 µM
NS(=O)(=O)c1ccc(CNc2nc(NCC(F)(F)F)c3nc(-c4ccc(N5CCCC5=O)cc4)ccc3n2)cc1 |  |  |  | replicon |  | <0.1 µM
Nc1ncnc2c1c(-c1ccsc1)cn2[C@@H]1O[C@H](CO)[C@@H](O)[C@H]1F |  |  | 1b | replicon | HCV replicon | 5.98 µM
O=C(Nc1ccc(C2SC(=Nc3ccc(N4CCOCC4)cc3)N(Cc3ccccn3)C2=O)cc1)[C@H]1CCCN1C(=O)Cc1ccccc1Cl |  |  |  | replicon | Huh7 | <0.1 µM
O=C(O)/C=C/c1ccc(NCC2(NC(=O)c3ccc4c(C5CCCCC5)c5n(c4c3)CC(C(=O)N3CCC(N4CCCC4)CC3)Cc3ccccc3-5)CCCC2)cc1 |  |  |  | replicon | Huh7 | 0.01–1 µM
CN1CCN(c2cc3c(cc2F)c(=O)c(-c2noc(C(C)(C)c4ccccc4)n2)cn3Cc2cccc(C(F)(F)F)c2)CC1 |  |  | 1b | replicon |  | >10 µM
O=C(N[C@@H](C(=O)N1CCC[C@H]1c1ncc(-c2ccc(-c3ccc(-c4cnc([C@@H]5CCCN5C(=O)[C@H](NC(=O)C5CC5)c5ccccc5)s4)cc3)cc2)s1)c1ccccc1)C1CC1 |  |  | genotype 2a | luciferase / reporter gene | Huh7.5 | 0.00025 µM